Measurements: BindingDB's records for 32852058

Columns and labels:
[1] = molecular target: Replicase polyprotein 1ab (Severe acute respiratory syndrome coronavirus, UniProt P0C6X7); test: ASSAY_NAME: No assay is provided DESCRIPTION: This is a review article.
[2] = molecular target: Spike glycoprotein [668-1255] (SARS-CoV, UniProt P59594); test: as above

Structure (SMILES)	IC50 [1] [µM]	EC50 [2] [µM]
O=C[C@H](Cc1c[nH]cn1)NC[C@H]1C[C@H]2CCCC[C@@H]2CN1C(=O)c1ccc(-c2ccccc2)cc1	240	–
O=C[C@H](Cc1c[nH]cn1)NC[C@@H]1C[C@@H]2CCCC[C@H]2CN1C(=O)c1ccc(-c2ccccc2)cc1	108	–
O=C[C@H](Cc1c[nH]cn1)NC[C@@H]1C[C@@H]2CCCC[C@H]2CN1C(=O)c1ccccc1	68	–
O=c1cc(-c2ccc(O)c(O)c2)oc2cc(O)cc(O)c12	–	10.6
O=C(OC[C@H]1O[C@@H](OC(=O)c2cc(O)c(O)c(O)c2)[C@H](OC(=O)c2cc(O)c(O)c(O)c2)[C@H](OC(=O)c2cc(O)c(O)c(O)c2)[C@@H]1O)c1cc(O)c(O)c(O)c1	–	4.4
